From patent US20040037837A1 (priority 2000, published 2004)

Tests used:
[1] = tested on: THP-1 cells pulsed with peptide; assay: 51Cr release cytotoxicity assay of peptide specific CD8+ T cells against peptide pulsed THP-1 cells; assay type: cell-based, human; conditions: 50:1 E:T ratio; label = peptide pulsed on targets; STCL after 2 weeks of stimulation
[2] = tested on: autologous monocyte-derived macrophages infected with M. bovis BCG, M. tuberculosis or rVV expressing Ag85A; assay type: cell-based, human

**Q.** What does the source list for “FMP M158-66: HLA-A*201-restricted influenza matrix epitope [reference compound]”?
**A.** specific lysis of peptide pulsed THP-1 cells by P242-250 reactive CD8^+ T cells [1]: no significant lysis; recognition and lysis of M. bovis BCG, M. tuberculosis and rVV85A infected macrophages by peptide specific CTLs [2]: no recognition
